The entries are a selection whose mix differs from that of the whole data set. The source made the active and inactive calls. Cut-off read from the data, not from the text of the source: active = protection mostly above about 24% (no sharp cut-off); inactive = mostly below about 26%.
test: compounds protecting cells from measles virus cytopathic effect, primary screen, measles RdRp inhibitor project, single point, MLSMR library, absorbance (AID 841); details: Measles virus-infected cells, CPE protection, at 4 µM, active compounds read high

Question: Which protection (pct of control) does the source give for `O=P1(Nc2ccccn2)COc2ccccc2OC1` here?
Answer: Its protection (pct of control) is inactive: 16.6%.

Question: Which protection (pct of control) does the source give for `Clc1n[nH]nc1-c1nn[nH][15n]1` here?
Answer: Its protection (pct of control) is inactive: 20.9%.

Question: Which protection (pct of control) does the source give for `O=P1(Nc2ncccn2)COc2ccccc2OC1` here?
Answer: The protection (pct of control) was inactive: 15.1%.

Question: Which protection (pct of control) does the source give for `Cc1ccc(OCC(=O)OC2CN3CCC2CC3)cc1` (stereo not drawn) here?
Answer: Its protection (pct of control) is inactive: 9.07%.

Question: With `O=P1(Nc2ccc(Br)cn2)COc2ccccc2OC1` as the compound, how does the protection (pct of control) read?
Answer: The protection (pct of control) was inactive: 3.9%.

Question: Which protection (pct of control) does the source give for `Cc1nn(-c2ccccc2)c2c1P(=O)(N1CCOCC1)N(C)C(c1ccccc1)=N2` (stereo not drawn) here?
Answer: Its protection (pct of control) is inactive: 9.65%.

Question: For `CCOP1(=S)c2c(C)nn(CCC#N)c2N=C(c2ccc(F)cc2)N1C` (stereo not drawn), which protection (pct of control) is on record?
Answer: The protection (pct of control) was inactive: 10.1%.

Question: For `O=[N+]([O-])c1ccc2c(c1)nnn2O`, which protection (pct of control) is on record?
Answer: Its protection (pct of control) is inactive: 20.2%.

Question: For `CCOP1(=S)c2c(C)nn(CCC#N)c2N=C(c2ccccc2F)N1C` (stereo not drawn), which protection (pct of control) is on record?
Answer: Its protection (pct of control) is inactive: 10.9%.

Question: With `O=P(Nc1nccs1)(c1ccccc1)c1nc2ccccc2s1` (stereo not drawn) as the compound, how does the protection (pct of control) read?
Answer: Its protection (pct of control) is inactive: 16.9%.

Question: For `Cc1ccc(NCCc2c([N+](=O)[O-])cc([N+](=O)[O-])cc2[N+](=O)[O-])cc1`, which protection (pct of control) is on record?
Answer: Its protection (pct of control) is inactive: 11.2%.

Question: For `COc1cc(C2NCCC3(OCCO3)C2(C)C)cc(OC)c1OC` (stereo not drawn), which protection (pct of control) is on record?
Answer: Its protection (pct of control) is inactive: 29.6%.

Question: With `CCOP(=O)(Nc1cccc2ccccc12)OCC` as the compound, how does the protection (pct of control) read?
Answer: Its protection (pct of control) is inactive: 5.87%.

Question: Which protection (pct of control) does the source give for `Cc1cccc(OCC(=O)OC2CN3CCC2CC3)c1` (stereo not drawn) here?
Answer: The protection (pct of control) was inactive: 17.1%.

Question: Which protection (pct of control) does the source give for `Cc1c2c(nc3ccccc13)SC(C(Cl)Cl)C2` (stereo not drawn) here?
Answer: Its protection (pct of control) is inactive: 36.4%.

Question: With `O=C(OC1CN2CCC1CC2)C12CC3CC(CC(C3)C1)C2` (stereo not drawn) as the compound, how does the protection (pct of control) read?
Answer: The protection (pct of control) was inactive: 2.02%.

Question: For `ClCCSc1nnc(-c2cccnc2)o1`, which protection (pct of control) is on record?
Answer: The protection (pct of control) was inactive: 36.1%.

Question: For `CCN(CC)C(=S)SC(NC=O)C(Cl)(Cl)Cl` (stereo not drawn), which protection (pct of control) is on record?
Answer: Its protection (pct of control) is inactive: 2.56%.

Question: For `O=[N+]([O-])c1cc([N+](=O)[O-])c(-c2ccn[nH]2)s1`, which protection (pct of control) is on record?
Answer: The protection (pct of control) was inactive: 21.2%.

Question: Which protection (pct of control) does the source give for `Cc1ccc2nc3c(c(C)c2c1)CC(C(Cl)Cl)S3` (stereo not drawn) here?
Answer: Its protection (pct of control) is inactive: 7.84%.

Question: For `Cc1cc(SC(NC(=O)c2ccccc2)C(Cl)(Cl)Cl)nc(C(C)C)n1` (stereo not drawn), which protection (pct of control) is on record?
Answer: The protection (pct of control) was inactive: 6.72%.

Question: With `CCC(C)N(CC(C)C)C(=S)SC(NC(C)=O)C(Cl)(Cl)Cl` (stereo not drawn) as the compound, how does the protection (pct of control) read?
Answer: The protection (pct of control) was inactive: 18.1%.

Question: Which protection (pct of control) does the source give for `COP1(=S)c2c(C)nn(CCC#N)c2N=C(c2ccc(F)cc2)N1C` (stereo not drawn) here?
Answer: Its protection (pct of control) is inactive: 8.36%.

Question: With `O=C(COc1ccccc1)OC1CN2CCC1CC2` (stereo not drawn) as the compound, how does the protection (pct of control) read?
Answer: The protection (pct of control) was inactive: 4.53%.

Question: For `CC1CCN(C(=O)Oc2c(Cl)cc(Cl)c3cccnc23)CC1`, which protection (pct of control) is on record?
Answer: The protection (pct of control) was inactive: 4.67%.

Question: Which protection (pct of control) does the source give for `CN(C)C(=O)OCCc1n(C)cc[n+]1C` here?
Answer: The protection (pct of control) was inactive: 4.36%.

Question: For `CCc1nc2c(n1)c1c(non1O)c1c2no[n+]1[O-]`, which protection (pct of control) is on record?
Answer: The protection (pct of control) was inactive: 6.12%.

Question: With `O=[N+]([O-])c1cccc2n[nH]nc12` as the compound, how does the protection (pct of control) read?
Answer: Its protection (pct of control) is inactive: 39.3%.

Question: For `CC(=O)N1C2C3N(C(C)=O)C1C1N(C(C)=O)C(C(N1C(C)=O)N3C(C)=O)N2C(C)=O`, which protection (pct of control) is on record?
Answer: The protection (pct of control) was inactive: 10.7%.

Question: With `CCN(N=Nc1nonc1N)c1nonc1N` as the compound, how does the protection (pct of control) read?
Answer: The protection (pct of control) was inactive: 20.4%.

Question: With `Cc1cc(SC(NC(=O)c2ccc(F)cc2)C(Cl)(Cl)Cl)ncn1` (stereo not drawn) as the compound, how does the protection (pct of control) read?
Answer: The protection (pct of control) was inactive: 7.8%.

Question: Which protection (pct of control) does the source give for `CCOP(=O)(Nc1ccccc1)OCC` here?
Answer: The protection (pct of control) was inactive: 11.1%.

Question: For `Oc1ccccc1CNc1ccccn1`, which protection (pct of control) is on record?
Answer: Its protection (pct of control) is inactive: 2.4%.

Question: Which protection (pct of control) does the source give for `O=C(NC(Sc1ccncn1)C(Cl)(Cl)Cl)c1ccccc1` (stereo not drawn) here?
Answer: The protection (pct of control) was inactive: 7.53%.

Question: Which protection (pct of control) does the source give for `Cc1c2non([O-])c-2c(C)[n+](=O)[n+]1[O-]` here?
Answer: The protection (pct of control) was inactive: 8.98%.

Question: With `CC(C)CC(=O)NC(Sc1ccc(Cl)cc1)C(Cl)(Cl)Cl` (stereo not drawn) as the compound, how does the protection (pct of control) read?
Answer: Its protection (pct of control) is inactive: 10.4%.

Question: Which protection (pct of control) does the source give for `CN1CCCC(OC(=O)C(c2ccccc2)c2ccccc2)C1` (stereo not drawn) here?
Answer: The protection (pct of control) was inactive: 5.4%.

Question: For `O=P1(Nc2nc3ccc(Cl)cc3s2)COc2ccccc2O1` (stereo not drawn), which protection (pct of control) is on record?
Answer: Its protection (pct of control) is inactive: 19.7%.

Question: With `CCC(=O)N1C2C3N(C(=O)CC)C1C1N(C(=O)CC)C(C(N1C(=O)CC)N3C(=O)CC)N2C(=O)CC` as the compound, how does the protection (pct of control) read?
Answer: Its protection (pct of control) is inactive: 2.33%.

Question: For `COC(=O)c1cc2c(s1)N=C(c1ccccc1)N(C)P2(=O)N1CCOCC1` (stereo not drawn), which protection (pct of control) is on record?
Answer: Its protection (pct of control) is active: 84.6%.

Question: Which protection (pct of control) does the source give for `CC(=O)NC(SC(=S)N(CC(C)C)CC(C)C)C(Cl)(Cl)Cl` (stereo not drawn) here?
Answer: Its protection (pct of control) is inactive: 5.3%.

Question: For `CCOC(=O)NC(Sc1ccccc1)C(Cl)(Cl)Cl` (stereo not drawn), which protection (pct of control) is on record?
Answer: The protection (pct of control) was inactive: 4.06%.

Question: With `CC(=O)NC(SC(=S)N(C)C)C(Cl)(Cl)Cl` (stereo not drawn) as the compound, how does the protection (pct of control) read?
Answer: The protection (pct of control) was inactive: 1.82%.

Question: Which protection (pct of control) does the source give for `O=C(OC1CN2CCC1CC2)c1cccc(Cl)c1` (stereo not drawn) here?
Answer: Its protection (pct of control) is inactive: 10.1%.

Question: Which protection (pct of control) does the source give for `C(Cc1nn[nH]n1)Cc1nn[nH]n1` here?
Answer: The protection (pct of control) was active: 24.1%.

Question: Which protection (pct of control) does the source give for `CC(C)C(=O)NC(Sc1ccccc1)C(Cl)(Cl)Cl` (stereo not drawn) here?
Answer: The protection (pct of control) was inactive: 8.96%.

Question: With `O=P(Nc1nccs1)(c1ccccc1)c1ccccc1` as the compound, how does the protection (pct of control) read?
Answer: The protection (pct of control) was inactive: 4.79%.

Question: With `c1nnnn1CCn1cnnn1` as the compound, how does the protection (pct of control) read?
Answer: The protection (pct of control) was inactive: 10.4%.

From PubChem BioAssay AID841 (Emory University Molecular Libraries Screening Center, 2007)
